Data taken from publication PMC12022044, “Structural basis for saxitoxin congener binding and neutralization by anuran saxiphilins” (2025).

Protein sequences, listed by entry. Tags and fused reporters are not part of them. Residues count along the entry.
UniProt A0A9X9ZA84, 24-854 limits assumed: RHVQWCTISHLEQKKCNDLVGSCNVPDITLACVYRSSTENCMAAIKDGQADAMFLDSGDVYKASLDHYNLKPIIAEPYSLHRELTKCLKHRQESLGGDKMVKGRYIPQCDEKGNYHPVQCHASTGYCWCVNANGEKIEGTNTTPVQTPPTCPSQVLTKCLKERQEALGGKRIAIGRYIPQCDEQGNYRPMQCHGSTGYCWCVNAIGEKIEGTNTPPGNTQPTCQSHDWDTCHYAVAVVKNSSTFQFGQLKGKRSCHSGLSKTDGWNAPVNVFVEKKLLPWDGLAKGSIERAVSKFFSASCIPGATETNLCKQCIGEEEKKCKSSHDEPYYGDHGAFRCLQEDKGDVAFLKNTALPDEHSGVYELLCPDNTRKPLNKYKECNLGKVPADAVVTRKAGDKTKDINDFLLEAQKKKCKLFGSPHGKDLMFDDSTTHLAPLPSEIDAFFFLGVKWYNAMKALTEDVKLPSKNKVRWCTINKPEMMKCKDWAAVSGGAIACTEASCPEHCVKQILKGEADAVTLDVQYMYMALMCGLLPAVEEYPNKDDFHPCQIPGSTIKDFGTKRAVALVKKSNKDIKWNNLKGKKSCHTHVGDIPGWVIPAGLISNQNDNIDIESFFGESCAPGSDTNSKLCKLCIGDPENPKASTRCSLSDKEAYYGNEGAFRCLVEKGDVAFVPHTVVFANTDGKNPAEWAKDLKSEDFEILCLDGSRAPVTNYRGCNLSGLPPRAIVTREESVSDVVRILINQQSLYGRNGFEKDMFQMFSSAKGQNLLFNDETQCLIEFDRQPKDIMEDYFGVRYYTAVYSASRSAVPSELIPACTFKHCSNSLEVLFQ

Columns and labels:
RcSxph [1] = target: T1, RcSxph (Aquarana catesbeiana, UniProt P31226); experiment: Thermofluor (TF) assay, RcSxph; conditions: for RcSxph ΔΔTm: TmSxph+20µM toxin − TmSxph+20µM STX; for RcSxph ΔTm: ΔTm = TmSxph+20µM toxin − TmSxph
NpSxph [2] = target: T2, NpSxph (Nanorana parkeri, UniProt A0A9X9ZA84); experiment: Thermofluor (TF) assay, NpSxph; conditions: for NpSxph ΔΔTm: TmSxph+20µM toxin − TmSxph+20µM STX; for NpSxph ΔTm: ΔTm = TmSxph+20µM toxin − TmSxph
RcSxph [3] = target: T1, RcSxph; experiment: Radioligand receptor binding assay (RBA) with [3H]STX, RcSxph; conditions: for RcSxph ΔΔG / Kd: RBA; for RcSxph ΔΔG: ΔΔG = RT ln(Kdtoxin/KdSTX), T = 298 K; for Fig. S2A Mean (normalized signal): normalized to no-toxin point; for Kd: read-out: RcSxph Kd, [3H]STX
NpSxph [4] = target: T2, NpSxph; experiment: Radioligand receptor binding assay (RBA) with [3H]STX, NpSxph; conditions: for Mean (normalized [3H]STX binding): Fig. S2D; for Mean (raw [3H]STX binding signal): Fig. S2F; for NpSxph ΔΔG / Kd: RBA; for NpSxph ΔΔG: ΔΔG = RT ln(Kdtoxin/KdSTX), T = 298 K; for Kd: read-out: NpSxph Kd, [3H]STX
RcSxph [5] = target: T1, RcSxph; experiment: Fluorescence polarization competition (FPc) assay vs F-STX, RcSxph; conditions: for RcSxph ΔΔG / Kd: FPc; for RcSxph ΔΔG: ΔΔG = RT ln(Kdtoxin/KdSTX), T = 298 K
NpSxph [6] = target: T2, NpSxph; experiment: Fluorescence polarization competition (FPc) assay vs F-STX, NpSxph; conditions: for NpSxph ΔΔG / Kd: FPc; for NpSxph ΔΔG: ΔΔG = RT ln(Kdtoxin/KdSTX), T = 298 K
RcSxph E540A = RcSxph E540A (Aquarana catesbeiana, UniProt P31226, E559A); experiment: Radioligand receptor binding assay (RBA) with [3H]STX, RcSxph E540A; conditions: for Mean (raw [3H]STX binding signal): Fig. S2G; for Mean raw [3H]STX binding signal (Fig. S2G): mean of replicates

gonyautoxin-1/4
RcSxph ΔΔTm (RcSxph [1]): -3.8 ± 0.2 °C | RcSxph ΔTm (RcSxph [1]): -0.2 ± 0.1 °C | NpSxph ΔΔTm (NpSxph [2]): -3.3 ± 0.3 °C | NpSxph ΔTm (NpSxph [2]): -0.1 ± 0.1 °C | RcSxph ΔΔG (RcSxph [3]): > 12.6 kJ/mol | Fig. S2C Mean (raw signal) (RcSxph [3]; Toxin 3.00000 nM): 2997.67 | Fig. S2A Mean (normalized signal) (RcSxph [3]; Toxin 3.00000 nM): 1.027 | Fig. S2C Mean (raw signal) (RcSxph [3]; Toxin 29.99998 nM): 2929.2 | Fig. S2A Mean (normalized signal) (RcSxph [3]; Toxin 29.99998 nM): 1.016 | Fig. S2C Mean (raw signal) (RcSxph [3]; Toxin 100 nM): 2972.4 | Fig. S2A Mean (normalized signal) (RcSxph [3]; Toxin 100 nM): 1.031 | Fig. S2C Mean (raw signal) (RcSxph [3]; Toxin 1000 nM): 2650.6 | Fig. S2A Mean (normalized signal) (RcSxph [3]; Toxin 1000 nM): 0.919 | Fig. S2C Mean (raw signal) (RcSxph [3]; Toxin 10000 nM): 1526.4 | Fig. S2A Mean (normalized signal) (RcSxph [3]; Toxin 10000 nM): 0.529 | Kd (RcSxph [3]): > 1 µM | Mean (normalized [3H]STX binding) (NpSxph [4]; Toxin (nM) 3.00000): 0.9687 | Mean (normalized [3H]STX binding) (NpSxph [4]; Toxin (nM) 29.99998): 1.002 | Mean (normalized [3H]STX binding) (NpSxph [4]; Toxin (nM) 100): 1.031 | Mean (normalized [3H]STX binding) (NpSxph [4]; Toxin (nM) 1000): 0.9573 | Mean (normalized [3H]STX binding) (NpSxph [4]; Toxin (nM) 10000): 0.6204 | Mean (raw [3H]STX binding signal) (NpSxph [4]; Toxin (nM) 3.00000): 2874.33 | Mean (raw [3H]STX binding signal) (NpSxph [4]; Toxin (nM) 29.99998): 3032.6 | Mean (raw [3H]STX binding signal) (NpSxph [4]; Toxin (nM) 100): 3136.71 | Mean (raw [3H]STX binding signal) (NpSxph [4]; Toxin (nM) 1000): 2913.29 | Mean (raw [3H]STX binding signal) (NpSxph [4]; Toxin (nM) 10000): 1885.14 | NpSxph ΔΔG (NpSxph [4]): > 12.6 kJ/mol | Kd (NpSxph [4]): > 1 µM | RcSxph ΔΔG (RcSxph [5]): > 15.5 kJ/mol | Kd (RcSxph [5]; read-out: RcSxph affinity): > 5 µM | NpSxph ΔΔG (NpSxph [6]): > 15.5 kJ/mol | Kd (NpSxph [6]; read-out: NpSxph affinity): > 5 µM | Mean (raw [3H]STX binding signal) (RcSxph E540A; Toxin (nM) 3.00000): 80.3333 | Mean (raw [3H]STX binding signal) (RcSxph E540A; Toxin (nM) 29.99998): 84.2 | Mean raw [3H]STX binding signal (Fig. S2G) (RcSxph E540A; Toxin 100 nM): 91.4 | Mean raw [3H]STX binding signal (Fig. S2G) (RcSxph E540A; Toxin 1000 nM): 82 | Mean raw [3H]STX binding signal (Fig. S2G) (RcSxph E540A; Toxin 10000 nM): 63.25

gonyautoxin-6
RcSxph ΔΔTm (RcSxph [1]): -2.8 ± 0.4 °C | RcSxph ΔTm change (in words) (RcSxph [1]; highest tested concentrations (>10 µM)): some minor ΔTm changes | RcSxph ΔTm (RcSxph [1]): 0.8 ± 0.3 °C | NpSxph ΔΔTm (NpSxph [2]): -3.0 ± 0.4 °C | NpSxph ΔTm (NpSxph [2]): 0.2 ± 0.2 °C | RcSxph ΔΔG (RcSxph [3]): > 12.6 kJ/mol | Fig. S2C Mean (raw signal) (RcSxph [3]; Toxin 10.00000 nM): 2821 | Fig. S2A Mean (normalized signal) (RcSxph [3]; Toxin 10.00000 nM): 1.062 | Fig. S2C Mean (raw signal) (RcSxph [3]; Toxin 100 nM): 2748.33 | Fig. S2A Mean (normalized signal) (RcSxph [3]; Toxin 100 nM): 1.034 | Fig. S2C Mean (raw signal) (RcSxph [3]; Toxin 1000 nM): 1647 | Fig. S2A Mean (normalized signal) (RcSxph [3]; Toxin 1000 nM): 0.62 | Kd (RcSxph [3]): > 1 µM | Mean (normalized [3H]STX binding) (NpSxph [4]; Toxin (nM) 100): 1.049 | Mean (normalized [3H]STX binding) (NpSxph [4]; Toxin (nM) 1000): 0.5703 | Mean (raw [3H]STX binding signal) (NpSxph [4]; Toxin (nM) 100): 2947 | Mean (raw [3H]STX binding signal) (NpSxph [4]; Toxin (nM) 1000): 1603 | NpSxph ΔΔG (NpSxph [4]): > 12.6 kJ/mol | Kd (NpSxph [4]): > 1 µM | RcSxph ΔΔG (RcSxph [5]): 12.7 kJ/mol | ΔΔGRcSxph (RcSxph [5]; Fig. 2E, relative to STX): 12.72 kJ/mol | Kd (RcSxph [5]; read-out: RcSxph Kd, competition with F-STX): 1.52 µM | NpSxph ΔΔG (NpSxph [6]): 12.3 kJ/mol | ΔΔGNpSxph (NpSxph [6]; Fig. 2E, relative to STX): 12.3 kJ/mol | Kd (NpSxph [6]; read-out: NpSxph Kd, competition with F-STX): 1.24 µM | Mean (raw [3H]STX binding signal) (RcSxph E540A; Toxin (nM) 10.00000): 82.6667 | Mean (raw [3H]STX binding signal) (RcSxph E540A; Toxin (nM) 100): 75.6667 | Mean raw [3H]STX binding signal (Fig. S2G) (RcSxph E540A; Toxin 1000 nM): 72
